Test system: microRNAs 885-3p, 888*, 98, 1262, 1229, 30c-1*, 891b, 302b, 1246, and 502-3p

Aflatoxin B1 was tested, and the “Aggregate result, correct” value was 17/30.

— US20130244896A1, “IN VITRO METHOD FOR PREDICTING WHETHER A COMPOUND IS GENOTOXIC IN VIVO” (priority 2012, published 2013)
